Experimental findings from patent publication US6642365B1, “Anti-(retro)viral conjugates of saccharides and acetamidino or guanidino compounds” (Yeda Research and Development Co. Ltd., priority 2001, dated 2003) are described below.

Some results are limits rather than exact numbers.

The subject of series [1] is MT-2 cells as well as PMBC lines ETH and IS. The following applies: 2 days incubation. The method, then:
(§1) The cells were infected by incubation with different titers of the HIV-1 strains for 2 hrs at 37° C. in the presence or absence of the AAC of the invention. Then the cells were washed from the virus by centrifugation at 400 g and the supernatants were discarded. The cells were resuspended in culture medium, supplemented with different concentrations of the test compounds. The cells were allowed to proliferate for 5 days, the number of viable cells was quantified by a tetrazolium-based colorimetric method (CellTiter 96® AQueous One solution Cell Proliferation Assay, Promega). Anti-HIV activity in P4-CCR5 MAGI cells was done as follows: cells (1×10^5/ml) were infected with 10 ng/ml of p24 antigen of HIV-1 Ba-L in the presence of varying concentrations of the test compound. 24 hours post infection, cells were washed twice with PBS and resuspended in the medium containing the appropriate drug concentration. Five days after infection the cells were washed with PBS and evaluated for β-galactosidase activity.

The test system of series [2] is MT-4 cells. As to the kind of experiment: Cytotoxicity in MT-4 cells, MTT. In kind it is cell-based, human. To be noted: viability of MT-4 cells, MTT assay. As to the method:
as §1
For orientation: Formazan colour is commonly taken as a measure of viable cells.

In general, CC50 refers to the concentration giving 50% cytotoxicity. For the substance “Hexa/penta-argininamido-neomycin B conjugate [NeoR]”, in series [1], half-maximal cytotoxicity (CC50) was put at 250 µM. The substance SDF-1α came in with a CC50 in series [2] greater than 0.1 µM. For the substance “Triargininamido-gentamicin conjugate [R3G]”, the values for the CC50 in series [2] and in series [1] were greater than 3940 µM and greater than 500 µM, respectively.
